Source: article PMC4422518, “Effects of 39 Compounds on Calmodulin-Regulated Adenylyl Cyclases AC1 and Bacillus anthracis Edema Factor” (2015)

Molecular target: Bacillus anthracis edema factor (EF) (Bacillus anthracis) (UniProt P40136)

Substance: calmodulin (CaM-wt) (from UniProt P62149 1-149) (natural protein)
- inhibition of CaM-stimulated AC activity of EF (0.1 uM CaM) by 10 uM penfluridol: 45 % inhibition
